Measured values from several laboratories, pooled; numbers as filed in NIAID ChemDB.

Shared fields: whole-cell or culture tests; organism: Candida albicans

Conditions beyond the fields shown may differ between rows. MIC50, MIC90 and the like: level of inhibition, or share of isolates inhibited. Blank or dashed fields: not listed here.

{"structure": "Cc1ccc(-c2cc(-c3ccc(Cl)cc3)nc(/N=C3\\C(=O)Nc4ccc(Cl)cc43)n2)cc1", "measure": "MIC", "result": "78.12 µg/mL"}
{"structure": "Cc1cc(Cl)[nH]c2ccc3c(=O)c(C(=O)NN=Cc4ccccc4Cl)cnc3c12", "method": "broth dilution", "measure": "MIC", "result": "250 µg/mL"}
{"structure": "CN(C)C(=O)c1ccc2nc(NC(=O)C3CCC(CN)CC3)sc2c1", "measure": "MIC", "result": "0.39 µM"}
{"structure": "CC1(C)CC[C@]2(C(=O)O)CC[C@]3(C)C(=CC[C@@H]4[C@@]5(C)CC[C@H](O[C@@H]6OC[C@H](O)[C@H](O)C6O)[C@@](C)(CO)[C@@H]5CC[C@]43C)[C@@H]2C1", "strain": "Clinical isolates", "measure": "MFC", "result": ">100 µg/mL"}
{"structure": "O=C(c1cccc(F)c1)c1ccc2c(c1)oc(=O)n2CC1=NCCS1", "measure": "MIC", "result": "100 µg/mL"}
{"structure": "Clc1ccc(CO/N=C2/c3ccc(Cl)cc3OCC2n2ccnc2)cc1", "measure": "MIC", "result": "4 µg/mL"}
{"structure": "C[C@@H]1C(=O)N(CCCCc2ccccc2)C(=O)[C@@H]1C", "method": "broth dilution / turbidity", "strain": "ATCC 10231", "measure": "MIC", "result": "62.5 µg/mL"}
{"structure": "COc1ccc(CNC(=O)c2ccccc2O)cc1", "strain": "ATCC 44859", "measure": "Geometric mean MIC", "result": "431.8 µM"}
{"structure": "C[C@@H]1O[C@@H](O[C@H]2[C@H](O)[C@@H](O)C(OC3[C@H](O[C@H]4CC[C@]5(C)[C@H]6CC=C7[C@@H]8CC(C)(C)CC[C@]8(C(=O)O)CC[C@@]7(C)[C@]6(C)CC[C@H]5C4(C)C)OC[C@H](O)[C@@H]3O)O[C@@H]2CO)[C@H](O)[C@H](O)[C@H]1O", "strain": "Y0109", "measure": "MFC", "result": ">100 µg/mL"}
{"structure": "Cc1nc2c(s1)C(=O)C(Nc1ccc(C#N)cc1)=C(Cl)C2=O", "method": "broth dilution", "strain": "KCCM 50235", "measure": "MIC", "result": "3.2 µg/mL"}
{"structure": "Cc1ccc(-c2cc(-c3ccc(Cl)cc3)nc(/N=C3\\C(=O)N(CN4CCOCC4)c4ccc(Br)cc43)n2)cc1", "measure": "MIC", "result": "39.06 µg/mL"}
{"structure": "C[C@@H]1CC(=O)N(c2ccc([N+](=O)[O-])cc2)C1=O", "method": "broth dilution / turbidity", "strain": "ATCC 10231", "measure": "MIC", "result": "62.5 µg/mL"}
{"structure": "Cc1nc2c(s1)C(=O)C(Nc1ccc(F)cc1)=C(Cl)C2=O", "method": "broth dilution", "strain": "KCCM 50235", "measure": "MIC", "result": "12.5 µg/mL"}
{"structure": "O=C(Nc1nc2ccc(NC(=O)[C@@H]3CCC[C@@H](NCc4ccc(-c5ccccc5)cc4)C3)cc2s1)C1CCCC1", "measure": "MIC", "result": ">12.5 µM"}
{"structure": "NC(=NC1CCCC1)c1ccc(-c2ccc(-c3ccc(C(N)=NC4CCCC4)cc3)o2)cc1", "strain": "A39", "measure": "MIC", "result": "6.25 µg/mL"}
{"structure": "O=C(Nc1nc2ccc(NC(=O)[C@H]3CCC[C@@H](NCc4ccc5ccccc5c4)C3)cc2s1)C1CCCC1", "measure": "MIC", "result": "3.13 µM"}
{"structure": "CCCCCCCCCCCCCCCCOP(=O)([O-])OCC[N+](C)(C)C", "measure": "MIC90", "result": "2 µg/mL"}
{"structure": "c1ccc(CO/N=C2\\c3ccccc3OCC2n2ccnc2)cc1", "measure": "MIC", "result": "32 µg/mL"}
{"structure": "CC(=O)c1ccc2c(c1)N(C(=O)CN1C(=O)CCC1=O)c1ccccc1S2", "strain": "NCIM no 300", "measure": "MIC", "result": ">50 µg/mL"}
{"structure": "COc1ccc(C(=O)c2ccc3c(c2)oc(=O)n3CC2=NCCS2)cc1", "measure": "MIC", "result": "100 µg/mL"}
{"structure": "Cc1nc2c(s1)C(=O)C(Nc1ccc(I)cc1)=C(Cl)C2=O", "method": "broth dilution", "strain": "KCCM 50235", "measure": "MIC", "result": "3.2 µg/mL"}
{"structure": "CC(=O)c1ccc2c(c1)N(CC(O)(Cn1cncn1)c1ccc(F)cc1F)C(=O)CO2", "method": "broth dilution", "strain": "ATCC 24433", "measure": "MIC80", "result": ">128 µg/mL"}
{"structure": "Cc1ccc(C=NNC(=O)c2cnc3c(ccc4[nH]c(Cl)cc(C)c43)c2=O)cc1", "method": "broth dilution", "measure": "MIC", "result": "250 µg/mL"}
{"structure": "N[C@@H](C(=O)N[C@H](C(=O)O)C1O[C@@H](n2ccc(=O)[nH]c2=O)[C@H](O)[C@@H]1O)[C@H](O)Cc1ccc(O)cc1", "measure": "MIC", "result": ">200 µg/mL"}
{"structure": "Brc1ccc(CO/N=C2/c3ccccc3OCC2n2ccnc2)cc1", "measure": "MIC", "result": "4 µg/mL"}
{"structure": "Cc1ccc(-c2cc(-c3ccc(Cl)cc3)nc(/N=C3\\C(=O)Nc4ccccc43)n2)cc1", "measure": "MIC", "result": "39.06 µg/mL"}
{"structure": "CCCCCCCCCCCCCCCC(=O)NC1CC(O)C(O)NC(=O)C2C(O)C(CO)CN2C(=O)C(CCC(N)=O)NC(=O)C(C(O)C(O)c2ccc(O)cc2)NC(=O)C2CC(O)CN2C(=O)C(C(C)O)NC1=O", "measure": "MIC", "result": "0.03 µg/mL"}
{"structure": "CCOC(=O)/C=C/c1cc(C(=O)c2ccc([N+](=O)[O-])cc2)cn1C", "measure": "MIC", "result": ">8 µg/mL"}
{"structure": "O=C(Nc1nc2ccc(NC(=O)[C@@H]3CCC[C@@H](NCc4ccc5ccccc5c4)C3)cc2s1)C1CC1", "measure": "MIC", "result": "3.13 µM"}
{"structure": "CC(C(Sc1ccccc1C(=O)O)c1ccc([N+](=O)[O-])cc1)[N+](=O)[O-]", "strain": "ATCC64550", "measure": "MIC", "result": "15.6 µg/mL"}
{"structure": "CCC(O)(C#Cc1c(C)nc(N)nc1N)CC", "measure": "MIC", "result": "12.5 µg/mL"}
{"structure": "COS(=O)(=O)[O-].Cn1c(-c2c[nH]c3ccccc23)c[n+](C)c1-c1cn(C)c2cc(Br)ccc12", "measure": "MIC", "result": ">50 µg/mL"}
{"structure": "Cc1nc(N)nc(N)c1C#CC(C)(C)C", "measure": "MIC", "result": "0.4 µg/mL"}
{"structure": "O=C(c1cccc(Cl)c1)c1ccc2c(c1)oc(=O)n2CC1=NCCS1", "measure": "MIC", "result": "25 µg/mL"}
{"structure": "CCC(C)CC(C)CCCCCCCCC(=O)N[C@H]1C[C@@H](O)[C@H](NCCN)NC(=O)[C@@H]2[C@@H](O)CCN2C(=O)[C@H]([C@H](O)CCN)NC(=O)[C@H]([C@H](O)[C@@H](O)c2ccc(O)cc2)NC(=O)[C@@H]2C[C@@H](O)CN2C(=O)[C@H]([C@@H](C)O)NC1=O", "method": "broth dilution", "strain": "ATCC 90028", "measure": "MIC", "result": "0.5 µg/mL"}
{"structure": "CCc1nc(N)nc(N)c1-c1ccc(Cl)cc1", "measure": "MIC", "result": "50 µg/mL"}
{"structure": "COc1cc(C)c2c(=O)cc(CC(C)=O)oc2c1C1O[C@@H](CO)[C@H](O)[C@@H](O)[C@@H]1OC(=O)/C=C\\c1ccc(O)cc1", "method": "agar diffusion", "strain": "ATCC 10231", "measure": "MIC", "result": "1810 µM"}
{"structure": "CCc1c(OC)ccc2sc(C)nc12", "method": "broth dilution", "strain": "KCCM 50235", "measure": "MIC", "result": "100 µg/mL"}
{"structure": "Cc1cc(Cl)[nH]c2ccc3c(=O)c(C(=O)NN4C(=O)C(Cl)C4c4ccc(Cl)cc4)cnc3c12", "method": "broth dilution", "measure": "MIC", "result": "200 µg/mL"}
{"structure": "Clc1ccc(CO/N=C2\\c3ccccc3OCC2n2ccnc2)cc1Cl", "measure": "MIC", "result": "1 µg/mL"}
{"structure": "O=C(CCNCc1ccc(-c2ccccc2)cc1)Nc1ccc2nc(NC(=O)C3CCCCC3)sc2c1", "measure": "MIC", "result": "4 µM"}
{"structure": "Cc1ccc(-c2cc(-c3ccc(Cl)cc3)nc(/N=C3\\C(=O)N(CN(C)C)c4ccccc43)n2)cc1", "measure": "MIC", "result": "78.12 µg/mL"}
{"structure": "CCCC[C@@H](C)/C=C(C)/C=C(\\C)C(=O)N/C(=C/[C@@](C)(O)/C=C/C=C/C=C/C(=O)NC1=C(O)CCC1=O)C(=O)[C@@H]1CO1", "method": "broth dilution", "strain": "1", "measure": "MIC", "result": "25 µM"}
{"structure": "CN1CCN(CP(CN2CCN(C)CC2)CN2CCN(C)CC2)CC1", "strain": "API 20 NE", "measure": "MIC", "result": "640 µg/mL"}
{"structure": "N=C(N)SCCN(CCSC(=N)N)CCN(CCSC(=N)N)CCSC(=N)N", "strain": "ATCC 18804", "measure": "MIC", "result": ">1000 µg/mL"}
{"structure": "Cc1ccc(N2C(=O)CC(C)C2=O)cc1", "method": "broth dilution / turbidity", "strain": "ATCC 10231", "measure": "MIC", "result": "250 µg/mL"}
{"structure": "COc1cc(C(Sc2ccccc2C(=O)O)C(C)[N+](=O)[O-])ccc1O", "strain": "ATCC64550", "measure": "MIC", "result": "15.6 µg/mL"}
{"structure": "Cn1cc(C(=O)c2ccc(F)cc2)cc1/C=C/C(=O)O", "measure": "MIC", "result": ">15 µg/mL"}
{"structure": "Cc1ccc(-c2cc(-c3ccc(Cl)cc3)nc(/N=C3\\C(=O)N(CN4CCOCC4)c4ccccc43)n2)cc1", "measure": "MIC", "result": "39.06 µg/mL"}
{"structure": "CC1(C)CC[C@]2(C(=O)O)CC[C@]3(C)C(=CC[C@@H]4[C@@]5(C)CC[C@H](OC6O[C@H](CO)[C@@H](O)[C@H](O)[C@H]6OC6O[C@H](CO)[C@@H](O)[C@H](O)[C@H]6O)C(C)(C)[C@@H]5CC[C@]43C)[C@@H]2C1", "strain": "Clinical isolates", "measure": "MFC", "result": ">100 µg/mL"}
{"structure": "Cc1cc(Cl)[nH]c2ccc3c(=O)c(C(=O)NN=Cc4ccccc4)cnc3c12", "method": "broth dilution", "measure": "MIC", "result": "250 µg/mL"}
{"structure": "CN=C(N)SCCN(CCSC(N)=NC)CCSC(N)=NC", "strain": "ATCC 18804", "measure": "MIC", "result": "500 µg/mL"}
{"structure": "C[C@@H]1O[C@@H](O[C@H]2[C@H](O[C@H]3CC[C@@]4(C)[C@@H](CC[C@]5(C)[C@@H]4CC=C4[C@@H]6CC(C)(C)CC[C@]6(C(=O)O)CC[C@]45C)[C@]3(C)CO)OC[C@H](O)[C@@H]2O)[C@H](O)[C@H](O)[C@H]1O", "strain": "ATCC 90029", "measure": "MFC", "result": "25 µg/mL"}
{"structure": "COc1ccc(C(=O)c2cc(/C=C/C(=O)O)n(C)c2)cc1", "measure": "MIC", "result": ">500 µg/mL"}
{"structure": "CN(C)C(=O)c1ccc2nc(NC(=O)[C@@H]3CCC[C@H](NCc4ccc5ccccc5c4)C3)sc2c1", "measure": "MIC", "result": "0.09 µg/mL"}
{"structure": "Cc1ccc(C(Sc2ccccc2C(=O)O)C(C)[N+](=O)[O-])cc1", "strain": "ATCC64550", "measure": "MIC", "result": "31.2 µg/mL"}
{"structure": "Cc1ccc(-c2cc(-c3ccc(Cl)cc3)nc(/N=C3\\C(=O)N(CN(C)C)c4ccc(Cl)cc43)n2)cc1", "measure": "MIC", "result": "78.12 µg/mL"}
{"structure": "COC(=O)[C@]1(C)CCC[C@@]2(C)[C@@H]3CC[C@@H]4C[C@@]3(CC[C@@H]21)C[C@@H]4C", "strain": "UBC1", "measure": "MIC", "result": ">50 µg/mL"}
{"structure": "CCC(C)C#Cc1c(C)nc(N)nc1N", "measure": "MIC", "result": "0.4 µg/mL"}
{"structure": "Cc1ccc(CNC(=O)c2ccccc2O)cc1", "strain": "ATCC 44859", "measure": "Geometric mean MIC", "result": "412 µM"}
{"structure": "C=C1CCC2[C@](C)(C(=O)O)CCC[C@]2(C)[C@@H]1CCCC(C)CC(=O)O", "strain": "UBC1", "measure": "MIC", "result": ">50 µg/mL"}
{"structure": "CCOC(=O)/C=C/c1cc(C(=O)c2ccccc2)cn1C", "measure": "MIC", "result": ">4 µg/mL"}
{"structure": "C=C1C[C@@]23CC[C@H]4[C@@](C)(CCC[C@@]4(C)C(=O)OC)[C@@H]2CC[C@@H]1C3", "strain": "UBC1", "measure": "MIC", "result": ">50 µg/mL"}
{"structure": "CCOc1ccc(C(Sc2ccccc2C(=O)O)C(C)[N+](=O)[O-])cc1", "strain": "ATCC64550", "measure": "MIC", "result": "15.6 µg/mL"}

For reference, 5 entries again:

structure,method,strain,measure,result
Cc1ccc(-c2cc(-c3ccc(Cl)cc3)nc(/N=C3\C(=O)Nc4ccc(Cl)cc43)n2)cc1,,,MIC,78.12 µg/mL
COc1cc(C(Sc2ccccc2C(=O)O)C(C)[N+](=O)[O-])ccc1O,,ATCC64550,MIC,15.6 µg/mL
COc1ccc(CNC(=O)c2ccccc2O)cc1,,ATCC 44859,Geometric mean MIC,431.8 µM
O=C(Nc1nc2ccc(NC(=O)[C@@H]3CCC[C@@H](NCc4ccc(-c5ccccc5)cc4)C3)cc2s1)C1CCCC1,,,MIC,>12.5 µM
Cc1cc(Cl)[nH]c2ccc3c(=O)c(C(=O)NN4C(=O)C(Cl)C4c4ccc(Cl)cc4)cnc3c12,broth dilution,,MIC,200 µg/mL